Results of unrelated studies side by side (data: NIAID ChemDB).

Shared fields: growth or infection tests; organism: Varicella zoster virus; cells: HEL; read-out: EC50

ECn is the concentration giving n% inhibition of infection, replication or growth.

CO[C@@H]1[C@H](O)[C@@H](CO)O[C@H]1c1ccccc1 ; strain: OKA ; read by: plaque count ; value: >50 µg/mL
Nc1nccc2c1ncn2C[C@@H](CO)OCP(=O)(O)O ; strain: YS (TK+) ; read by: plaque count ; value: 0.09 µg/mL
O=c1[nH]c(=O)n([C@H]2C[C@H](O)[C@@H](CO)O2)cc1/C=C/Cl ; strain: YS (TK+) ; read by: plaque count ; value: 0.03 µM
CC(C)C1NC(=O)N(C2CCCC2)C1=O ; strain: OKA (TK+) ; read by: plaque count ; value: 84 µg/mL
C#C[C@@H](O)C1=C[C@@H](n2cnc3c(N)ncnc32)[C@H](O)[C@@H]1O ; strain: OKA YS ; read by: cytopathic effect ; value: 15 µg/mL
CCCCCCCCCCCCc1cc2cn([C@H]3C[C@H](O)[C@@H](CO)O3)c(=O)nc2o1 ; strain: YS ; read by: plaque count ; value: 1.2 µM
CCCCCCCCc1cc2cn(C3C[C@@H](O)[C@@H](CO)O3)c(=O)nc2o1 ; read by: plaque count ; value: 24 µM
CCCCCCCCCCc1cc2cn([C@H]3C[C@H](O)[C@@H](CO)O3)c(=O)nc2o1 ; strain: YS ; read by: plaque count ; value: 0.008 µM
Nc1ncnc2c1ncn2C(CF)CCCO ; strain: OKA ; read by: cytopathic effect ; value: >50 µg/mL
CCCCCCCCCCCCc1cc2cn([C@H]3C[C@H](O)[C@@H](CO)O3)c(=O)nc2[nH]1 ; strain: OKA ; read by: plaque count ; value: 2.4 µM
CCCCCCOCCCc1cc2cn([C@H]3C[C@H](O)[C@@H](CO)O3)c(=O)nc2o1 ; strain: YS/R (TK-) ; read by: plaque count ; value: >50 µM
Cc1ccn2c(C3SCCS3)cnc2c1 ; strain: Strain 07/1 ; value: >1000 µM
CCCCCCCCCCCCc1cc2cn([C@H]3C[C@H](O)[C@@H](CO)O3)c(=O)nc2[nH]1 ; strain: 07/1 (TK-) ; read by: plaque count ; value: 76 µM
CCC(C)C1NC(=O)N(CC2CCCCC2)C1=O ; strain: 07/1 (TK-) ; read by: plaque count ; value: >4 µg/mL
Nc1nc2ncn(CCOCP(=O)(O)O)c2c(=O)[nH]1 ; strain: 07/1 (TK-) ; read by: plaque count ; value: 0.15 µg/mL
O=c1[nH]c(=O)n([C@H]2C[C@H](O)[C@@H](CO)O2)cc1/C=C/Br ; strain: YS/R (TK-) ; read by: plaque count ; value: 114.7 µM
Nc1nc(N)c2ncn(CCOCP(=O)(O)O)c2n1 ; strain: Oka PMEDAP-resistant ; read by: cytopathic effect ; value: 24.5 µM
CCCCCOCCCCc1cc2cn([C@H]3C[C@H](O)[C@@H](CO)O3)c(=O)nc2o1 ; strain: OKA ; read by: plaque count ; value: 0.5 µM
CO[C@H]1[C@H]2O[Si](C(C)C)(C(C)C)O[Si](C(C)C)(C(C)C)OC[C@@H]2O[C@@H]1c1ccccc1 ; strain: 07/1 ; read by: plaque count ; value: >2 µg/mL
CCCCc1ccc(-c2cc3cn(C4CC[C@@H](CO)O4)c(=O)nc3o2)cc1 ; strain: OKA (TK+) ; read by: plaque count ; value: 3.9 µM
CC(C)C[C@H](NC(=O)n1nnc2ccccc21)C(=O)NC1CCCCC1 ; strain: 07/1 (TK-) ; read by: plaque count ; value: >16 µg/mL
CCCCCCCCc1cc2cn([C@H]3C[C@H](O)[C@@H](CO)O3)c(=O)nc2[nH]1 ; strain: YS ; read by: plaque count ; value: 0.38 µM
O=c1[nH]c(=O)n([C@@H]2O[C@H](CO)[C@@H](O)[C@@H]2O)cc1/C=C/Br ; strain: OKA (WILD TYPE) ; read by: cytopathic effect ; value: 0.0002 µM
O=C(O)CP(=O)(O)O ; strain: YS/R (TK-) ; read by: plaque count ; value: 26.4 µM
CCCCCCCCCCCCc1cc2cn([C@H]3C[C@H](O)[C@@H](CO)O3)c(=O)nc2s1 ; strain: OKA ; read by: plaque count ; value: 0.2 µM
CCCCCCCCCCc1cc2cn([C@H]3C[C@H](O)[C@@H](CO)O3)c(=O)nc2n1C ; strain: OKA ; read by: plaque count ; value: 6 µM
Nc1nc(=O)n([C@@H]2O[C@H](CO)[C@@H](O)[C@@H]2F)cc1I ; strain: 07/1 (TK-) ; read by: plaque count ; value: 13.8 µM
Cc1cccn2c(C3OCCO3)cnc12 ; strain: YS ; value: >1000 µM
CC[C@H](O)C1=C[C@@H](n2cnc3c(N)ncnc32)[C@H](O)[C@@H]1O ; strain: 07/1 YS/R (TK-) ; read by: cytopathic effect ; value: >50 µg/mL
CC[Si]1(C(C)C)O[C@H]2[C@@H](O)[C@H](c3ccccc3)O[C@@H]2CO[Si](C(C)C)(C(C)C)O1 ; strain: OKA ; read by: plaque count ; value: >2 µg/mL
CCCCCCc1ccc(-c2cc3cn(C4CC[C@@H](CO)O4)c(=O)nc3o2)cc1 ; strain: OKA (TK+) ; read by: plaque count ; value: 4 µM
Nc1nc(N)c2ncn([C@H]3CCC[C@H]3CO)c2n1 ; strain: OKA (TK+) ; read by: plaque count ; value: >50 µg/mL
O=c1nc2oc(CCCCOc3ccccc3)cc2cn1[C@H]1C[C@H](O)[C@@H](CO)O1 ; strain: (TK+)/OKA ; read by: plaque count ; value: 25 µM
Nc1nc2c(ncn2[C@H]2CCC[C@H]2CO)c(=O)[nH]1 ; strain: OKA (TK+) ; read by: plaque count ; value: >50 µg/mL
CCCc1ccc(-c2cc3cn(C4CC[C@@H](CO)O4)c(=O)nc3o2)cc1 ; strain: YS/R (TK-) ; read by: plaque count ; value: >50 µM
Nc1nc(N)c2ncn(CC(CO)OCP(=O)(O)O)c2n1 ; strain: YS/R (TK-) ; read by: plaque count ; value: 1 µg/mL
Nc1nc2c(ncn2CCC(CO)CO)c(=O)[nH]1 ; strain: Clinical isolate VZV-5 ; read by: cytopathic effect ; value: 2.41 µM
CCCCCCCCCCc1cc2cn([C@H]3C[C@H](O)[C@@H](CO)O3)c(=O)nc2o1 ; strain: OKA ; read by: plaque count ; value: 0.02 µM
CC(C)C[C@H](NC(=O)n1nnc2ccccc21)C(=O)NC1CCCC1 ; strain: (TK+)/OKA ; read by: plaque count ; value: 66 µg/mL
O=C(O)P(=O)(O)O ; strain: Clinical isolate VZV-25 ; read by: cytopathic effect ; value: 81 µM
CCCCCCCCCCCc1cc2cn([C@H]3C[C@H](O)[C@@H](CO)O3)c(=O)nc2o1 ; strain: YS ; read by: plaque count ; value: 0.37 µM
CCCCCCc1cc2cn([C@H]3C[C@H](O)[C@@H](CO)O3)c(=O)nc2[nH]1 ; strain: OKA ; read by: plaque count ; value: >50 µM
Nc1nc2c(ncn2CCOCP(=O)(O)O)c(=O)[nH]1 ; strain: YS (TK+) ; read by: plaque count ; value: 0.001 µg/mL
Nc1nc(=O)n([C@H]2C[C@H](O)[C@@H](CO)O2)cc1/C=C/Cl ; strain: 07/1 (TK-) ; read by: plaque count ; value: >145 µM
CCOP(=O)(O)COCCn1cnc2c(=O)[nH]c(N)nc21 ; strain: YS/R (TK-) ; read by: plaque count ; value: 0.004 µg/mL
Nc1nc(N)c2ncn(CCOCP(=O)(O)O)c2n1 ; strain: YS/R (TK-) ; read by: plaque count ; value: 2.4 µM
CCCCCCCCCCCCc1cc2cn([C@H]3C[C@H](O)[C@@H](CO)O3)c(=O)nc2o1 ; strain: YS/R (TK-) ; read by: plaque count ; value: >50 µM
CCCCCCCCCCc1cc2cn([C@H]3C[C@H](O)[C@@H](CO)O3)c(=O)nc2o1 ; strain: 07/1 (TK-) ; read by: plaque count ; value: >50 µM
Nc1ncc2ncn([C@H]3CCC[C@H]3CO)c2n1 ; strain: OKA (TK+) ; read by: plaque count ; value: >20 µg/mL
O=c1[nH]c(=O)n([C@H]2C[C@H](O)[C@@H](CO)O2)cc1-c1ccc(Br)s1 ; strain: YS/R (TK-) ; read by: plaque count ; value: >103 µM
Cc1cccn2c(C3SCCS3)cnc12 ; strain: YS ; value: >1000 µM
NC1=NS(=O)(=O)N(Cc2ccccc2)c2nc(-c3ccc(Cl)cc3)[nH]c21 ; strain: YS/R (TK-) ; read by: plaque count ; value: 4 µg/mL
Nc1ncnc2c1ncn2[C@@H]1C=C(CO)[C@@H](O)[C@H]1O ; strain: 07/1 YS/R (TK-) ; read by: cytopathic effect ; value: 9 µg/mL
Cc1cn(CCCC(O)CF)c(=O)[nH]c1=O ; strain: OKA ; read by: cytopathic effect ; value: >50 µg/mL
Nc1nc2c(ncn2CCC(CO)CO)c(=O)[nH]1 ; strain: 5 isolates ; read by: plaque count ; value: 14 µg/mL
NC1=NS(=O)(=O)N(Cc2ccccc2)c2nc(Cc3ccccc3)[nH]c21 ; strain: YS/R (TK-) ; read by: plaque count ; value: 10.2 µg/mL
Cc1ccc(OCCCc2cc3cn([C@H]4C[C@H](O)[C@@H](CO)O4)c(=O)nc3o2)cc1 ; strain: TK+/YS ; read by: plaque count ; value: 11 µM
CCCCCCCc1cc2cn([C@H]3C[C@H](O)[C@@H](CO)O3)c(=O)nc2o1 ; strain: YS ; read by: plaque count ; value: 0.33 µM
O=c1nc2oc(CCCSc3ccccc3)cc2cn1[C@H]1C[C@H](O)[C@@H](CO)O1 ; strain: (TK-)07/1 ; read by: plaque count ; value: >50 µM
O=C(O)P(=O)(O)O ; strain: YS (TK+) ; read by: plaque count ; value: 42.3 µM
Nc1ccn(C(CF)CCCO)c(=O)n1 ; strain: 07-01/TK- ; read by: cytopathic effect ; value: >50 µg/mL
Cc1ccn2c(C3OCCS3)cnc2c1 ; strain: OKA ; value: >1000 µM
O=c1nc2oc(CCOC3CCCCO3)cc2cn1[C@H]1C[C@H](O)[C@@H](CO)O1 ; strain: OKA ; read by: plaque count ; value: >40 µM
O=c1ccn([C@@H]2O[C@H](/C=C/C=C(Br)Br)[C@@H](O)[C@H]2O)c(=O)[nH]1 ; strain: YS/R ; value: >120 µM

Lines come from different laboratories, so protocols vary.